Compound potency records, mixed from different reports. Data source: NIAID ChemDB in PubChem.

Shared fields: enzyme or target tests; species: Hepatitis C virus; target: NS5B polymerase

Rows are shuffled and stem from different studies. a–b is a range or a potency band. ICn is the concentration giving n% inhibition. Inhibition is in % at the dose shown (toxicity tests: loss of growth or viability). Blank or dashed fields: not listed here.

structure | read by | dose | strain or isolate | read-out | result
CCCCOC(=O)c1ccc(CCCC)nc1N(CCC)c1ccc(N2CCOCC2)cc1 | - | 0.1 µg/mL | - | inhibition | 30–55%
CC[C@H](C)C(NC(=O)c1ccc2c(c1)nc(-c1ccoc1)n2C1CCCCC1)C(=O)Nc1ccc(/C=C/C(=O)O)cc1 | - | - | - | IC50 | 0.5–5 µM
Cc1oc2ccc(OCc3ccccc3)cc2c1-c1ccc2cc(-c3nc4cc(C(=O)O)ccc4n3C3CCCCC3)ccc2n1 | - | 33 µM | - | inhibition | 94.57%
O=C(O)/C=C/c1ccc(NC(=O)C2(NC(=O)c3ccc4c(c3)nc(-c3ccccc3)n4C3CCC3)CCCC2)cc1 | - | - | - | IC50 | 0.5–5 µM
O=C(N[C@@H](Cc1c[nH]c2ccc(O)cc12)C(=O)O)c1ccc2c(c1)nc(-c1ccoc1)n2[C@@H]1C2CCC23CC3[C@@H]1CO | - | - | - | IC50 | 1–5 µM
COc1ccc(-c2ccc(Cl)cc2)c(-c2ccc3cc(-c4nc5cc(C(=O)O)ccc5n4CCN(C)C)ccc3n2)c1 | - | 33 µM | - | inhibition | 56.75%
COc1cccc(-c2nc3cc(C(=O)N[C@H](C(=O)O)c4c[nH]c5ccc(O)cc45)ccc3n2C2CCCCC2)c1O | - | - | - | IC50 | 1–5 µM
CCCCOC(=O)c1ccc(CC)nc1Nc1ccc(N2CCOCC2)cc1 | - | 0.1 µg/mL | - | inhibition | 30–55%
Nc1cc(Cn2c(C(=O)O)c(-c3ccc[nH]c3=O)c3cc(C(F)(F)F)ccc32)ccn1 | nucleotide incorporation / binding | - | - | IC50 | 0.015 µM
CC(C)(C)CC[C@@]1(C)C(=O)C(C2=NS(=O)(=O)c3cc(NS(C)(=O)=O)ccc3N2)=C(O)c2ccccc21 | luciferase | - | 1b | IC50 | 0.016 µM
O=C(O)COc1ccc(CC(NC(=O)c2ccc3c(c2)nc(-c2ccoc2)n3C2CCCCC2)C(=O)O)cc1Cl | - | - | - | IC50 | <1 µM
O=C(NC1(C(=O)Nc2ccc3c(C(F)(F)F)cc(=O)oc3c2)CCCC1)c1ccc2c(c1)nc(-c1ccoc1)n2C1CCCCC1 | - | - | - | IC50 | 5–25 µM
O=C(O)c1ccc2c(c1)nc(-c1ccc3nc(-c4ccccc4)c(-c4ccccc4)cc3c1)n2C1CCCCC1 | - | 33 µM | - | inhibition | 100%
CN(C)C(=O)c1ccc2c(c1)nc(-c1ccoc1)n2C1CCCCC1 | - | - | - | IC50 | 5–10 µM
C[C@@H](NC(=O)c1ccc2c(c1)nc(-c1ccoc1)n2C1CCCCC1)C(=O)Nc1ccc2c(c1)cc(C(=O)O)n2C | - | - | - | IC50 | <0.5 µM
CCC[C@]1(CC(=O)O)OCCc2c1[nH]c1c(C)ccc(C#N)c21 | - | - | 207-221 genotype 1A | IC50 | 0.7 µM
O=C(O)c1ccccc1NS(=O)(=O)c1cc(Cl)c(Cl)cc1Cl | nucleotide incorporation | - | - | IC50 | 26 µM
CC(NC(=O)c1ccc2c(c1)nc(-c1ccoc1)n2C1CCCCC1)C(=O)Nc1ccc(OCC(=O)O)cc1 | - | - | - | IC50 | 0.5–5 µM
O=C(O)c1cc(Br)ccc1NS(=O)(=O)c1cc(Cl)c(Cl)cc1Cl | nucleotide incorporation | - | - | IC50 | 9 µM
CCSc1nc(Nc2ccc(N(CC)CC)cc2)cc(N2CCN(C(=O)c3ccnc(C)c3)CC2)n1 | - | 0.1 µg/mL | - | inhibition | 30–55%
O=C(N[C@H](C(=O)O)c1c[nH]c2ccc(O)cc12)c1ccc2c(c1)nc(-c1ccccc1)n2C1CCCCC1 | - | - | - | IC50 | <1 µM
O=C(O)c1ccc2c(c1)nc(-c1ccc(OCc3cc(C(=O)N4CCC(O)CC4)ccc3-c3ccc(Cl)cc3)cc1F)n2C1CCCCC1 | - | - | - | Ki | 0.12 µM
Cc1nc(C)c(-c2nc3cc(C(=O)N[C@H](C(=O)O)c4c[nH]c5ccc(O)cc45)ccc3n2C2CCCCC2)s1 | - | - | - | IC50 | 1–5 µM
O=C(O)/C=C/c1ccc(NC(=O)[C@H](CCO)NC(=O)c2ccc3c(c2)nc(-c2ccoc2)n3C2CCCCC2)cc1 | - | - | - | IC50 | 0.5–5 µM
O=C(N[C@H](C(=O)O)c1c[nH]c2ccc(O)cc12)c1ccc2c(c1)nc(-c1cccc(=O)[nH]1)n2C1CCCCC1 | - | - | - | IC50 | 1–5 µM
C[C@H]1CCC[C@H](C)C1n1c(-c2ccco2)nc2cc(C(=O)NC3(C(=O)Nc4ccc(/C=C/C(=O)O)cc4)CCCC3)ccc21 | - | - | - | IC50 | 0.5–5 µM
O=C(O)COc1ccccc1CN1CCC(CNC(=O)c2ccc3c(c2)nc(-c2ccoc2)n3C2CCCCC2)C1 | - | - | - | IC50 | 10–25 µM
CCCCc1ccc(C(=O)O)c(N(C)c2ccc(N3CCNCC3)cc2)n1 | - | 0.1 µg/mL | - | inhibition | 30–55%
C[C@@H](NC(=O)c1ccc2c(c1)nc(-c1ccoc1)n2C1CCCCC1)C(=O)Nc1ccc(CCC(=O)O)cc1 | - | - | - | IC50 | 0.5–5 µM

3 of the rows above, restated:

structure,read by,dose,strain or isolate,read-out,result
O=C(O)COc1ccccc1CN1CCC(CNC(=O)c2ccc3c(c2)nc(-c2ccoc2)n3C2CCCCC2)C1,-,-,-,IC50,10–25 µM
O=C(N[C@H](C(=O)O)c1c[nH]c2ccc(O)cc12)c1ccc2c(c1)nc(-c1cccc(=O)[nH]1)n2C1CCCCC1,-,-,-,IC50,1–5 µM
Nc1cc(Cn2c(C(=O)O)c(-c3ccc[nH]c3=O)c3cc(C(F)(F)F)ccc32)ccn1,nucleotide incorporation / binding,-,-,IC50,0.015 µM